How the values were obtained:
[1] = system: HCV IRES stem IIa RNA target; assay: Mass spectrometry based binding assay; settings: read-out: Kd to IIa target; Table 8
[2] = system: HCV RNA levels in Ntat2ANeo replicon containing cell line; assay: Replicon assay (Ntat2ANeo replicon cells, quantitative RT-PCR of HCV RNA); assay type: cell-based; settings: read-out: Replicon IC50; Table 8

With CN(C)CCCn1c(N)nc2ccc3c(c21)CC(CN(C)C)O3 (centres unmarked) [IBIS00560047] the Kd [1] was 2100 nM and the IC50 [2] was 1500 nM.

Reference: US20050124638A1, “Benzimidazoles and analogs thereof as antivirals” (priority 2003, published 2005)
